Molecular target: AEP domain of C962R (aa 21–272) (African swine fever virus, UniProt A0A0C5B022)
Test: crystal structure of AEP-dCTP-Mn2+ complex
Settings: polymerase active site, crystallised at pH 8.0, 18 °C

With `Nc1ccn([C@H]2C[C@H](O)[C@@H](COP(=O)(O)OP(=O)(O)OP(=O)(O)O)O2)c(=O)n1` the “crystal structure of AEP-dCTP-Mn2+ complex” value was “the dCTP was captured at the active site of the protein”.
